Data set [1] concerns the molecule itself. Put plainly: SEC. Background: SEC sorts molecules by how far they enter the pores of the column.
Data set [2] concerns the molecule itself. Description: AUC.

Some results are limits rather than exact numbers.

One protein from publication PMC8872793 (Proceedings of the National Academy of Sciences of the …, 2021) can be followed below.

B1: Mycobacterium tuberculosis UvrD1 (Rv0949), wild type (enzyme)
chain: not shown
In the case of B1, the “stoichiometry N” value in data set [1] is 2; in data set [2], not below 2.

The stoichiometry N is the number of molecules, sites or subunits per partner or assembly.
